Measured values published in patent US20080199882A1, “METHOD FOR DETECTION OF BIOMARKERS FOR EXPOSURE TO STACHYBOTRYS” (published 2008).

Protein sequences, listed by entry. Tags and fused reporters are not part of them. Lines headed by an entry give the natural chain unless they say otherwise; changes in a name come on top.
UniProt P02768: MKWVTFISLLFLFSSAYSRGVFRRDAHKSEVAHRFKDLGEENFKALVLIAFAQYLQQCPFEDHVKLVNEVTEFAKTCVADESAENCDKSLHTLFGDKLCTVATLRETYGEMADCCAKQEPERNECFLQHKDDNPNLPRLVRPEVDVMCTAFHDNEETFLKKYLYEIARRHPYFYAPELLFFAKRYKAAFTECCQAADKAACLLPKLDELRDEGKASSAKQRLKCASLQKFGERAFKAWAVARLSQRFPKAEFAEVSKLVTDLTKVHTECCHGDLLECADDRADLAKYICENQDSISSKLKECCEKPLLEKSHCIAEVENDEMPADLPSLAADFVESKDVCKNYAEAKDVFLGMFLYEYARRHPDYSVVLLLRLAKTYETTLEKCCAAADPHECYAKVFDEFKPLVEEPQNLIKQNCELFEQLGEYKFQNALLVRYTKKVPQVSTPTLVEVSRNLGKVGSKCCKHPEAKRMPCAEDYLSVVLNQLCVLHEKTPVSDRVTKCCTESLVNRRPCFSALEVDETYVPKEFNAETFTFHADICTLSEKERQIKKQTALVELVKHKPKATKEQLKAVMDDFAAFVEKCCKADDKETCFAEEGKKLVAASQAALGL

What was measured:
[1] = Satratoxin G adducts in pronase digests of cat serum, MALDI-TOF MS; conditions: two cats with acute pulmonary hemorrhage from a mold-infiltrated house
[2] = Amino acid-satratoxin G adducts in pronase digests of human serum, MALDI-TOF MS; conditions: three patients with documented exposure to S. chartarum, 2 mL serum
[3] = molecular target: T1, human serum albumin (Homo sapiens, UniProt P02768); assay: MS analysis of intact rHSA incubated with satratoxin G (adduct formation in vitro); conditions: incubation with a 20-fold excess of toxin in vitro, ESI-TOF and MALDI-TOF MS
[4] = molecular target: T1, human serum albumin; assay: SDS-PAGE and Western blot of human serum albumin incubated with satratoxin G, anti-satratoxin G antibody; conditions: PBS, 37° C., 20 h, increasing concentrations of satratoxin G, reduced and boiled samples

satratoxin G
immunoreactive free toxin in sera of exposed animals (1 h-72 h post exposure, 4.0×10^5 spores/gm body weight): No immunoreactive free toxin could be detected | free toxin in the blood by ELISA at later times (rat pups, after the immediate time point): No free toxin in the blood could subsequently be detected | satratoxin G adducts in serum [1]: Serum samples from both cats were positive for satratoxin G adducts | satratoxin G amino acid adducts in serum [2]: cysteinyl adducts were detected in all three of the exposed patient samples | number of amino acid residues in the albumin molecule modified [3]: up to ten amino acid residues in the albumin molecule are modified | anti-satratoxin G staining of the HSA band at ~67 kDa [4]: intensity of staining increasing with increasing concentrations of satratoxin G
